## Sequence variants of PSTVd loop 6 after infection

Region: loop 6 of PSTVd (intermediate strain), upper and lower strand joined, each 5' to 3', the first 5 letters being the upper strand, closing pairs included. Wild type: UGACCGCGAG. Varied positions (N): UNNNCGNNNG.

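A pool of all variants was put on leaves of three Nicotiana benthamiana plants. Progeny were sequenced from the inoculated region (day 5), the margin of the inoculated leaf (day 10) and systemic leaves (day 12).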

Values are reads per thousand in the sample; higher means more abundant, 0 means not found. Each site shows the three plants. "Pool" is the share in the plasmid pool used as inoculum, on the same scale. The inoculated region was read from the minus strand, the other sites from the plus strand. With 36,220-57,551 reads a sample, very low values are single reads.

sequence,pool,inoculated region,leaf margin,systemic leaves
UCACCGGCAG,0.196,0.174 0.0898 0.0369,0 0 0.0696,0 0 0
UCACCGGCCG,0.144,0.191 0.0898 0.129,0 0 0.0696,0 0 0
UCACCGGCGG,0.170,0.191 0.108 0.111,0 0 0.0232,0 0 0
UCACCGGCUG,0.222,0.122 0.162 0.0553,0 0 0.0928,0 0 0
UCACCGGGAG,0.170,0.156 0.0898 0.0922,0 0 0.0464,0 0 0
UCACCGGGCG,0.144,0.0869 0.0359 0.148,0 0 0,0 0 0
UCACCGGGGG,0.131,0.0869 0.0719 0.0369,0 0 0.0464,0 0 0
UCACCGGGUG,0.209,0.0695 0.0898 0.0553,0 0 0.0464,0 0 0
UCACCGGUAG,0.196,0.0695 0.126 0.0922,0.0552 0 0.0696,0 0 0
UCACCGGUCG,0.314,0.0521 0.0719 0.0738,0.0276 0 0.0232,0 0 0
UCACCGGUCU,0.0131,0 0 0,0 0 0,0 0 0
UCACCGGUGG,0.196,0.122 0.126 0.0738,0 0 0.0232,0 0 0
UCACCGGUUG,0.170,0.122 0.0359 0.111,0 0 0,0 0 0
UCACCGUAAG,0.0523,0.417 0.485 0.461,0.0552 0 0.139,0 0 0
UCACCGUACG,0.196,0.0869 0.0359 0.129,0.0276 0 0.0696,0 0 0
UCACCGUAGG,0.235,0 0.0539 0.0738,0 0 0.0464,0 0 0
UCACCGUAUG,0.222,0.104 0.126 0.0922,0.304 0 0.0696,0 0 0
UCACCGUCAG,0.248,0.591 0.647 0.498,0.166 0.101 0.0928,0 0 0
UCACCGUCCG,0.118,0.0869 0.0539 0.0922,0.0276 0 0.0232,0 0 0
UCACCGUCGG,0.209,0.191 0.0719 0.148,0 0 0.0232,0 0 0
UCACCGUCUG,0.196,0.0695 0.0359 0.166,0 0 0.0232,0 0 0
UCACCGUGAG,0.235,0.851 0.701 0.627,0.0276 0.0504 0.0696,0 0 0
UCACCGUGCG,0.157,0.0695 0.144 0.0184,0 0 0.0464,0 0 0
UCACCGUGGG,0.131,0.139 0.108 0.111,0 0 0.0696,0 0 0
UCACCGUGUG,0.301,0.104 0.126 0.184,0 0 0.0464,0 0 0
UCACCGUUAG,0.340,0.104 0.144 0.129,0 0 0.0696,0 0 0
UCACCGUUCG,0.209,0.0521 0.144 0.148,0.0552 0 0.116,0 0 0
UCACCGUUGG,0.275,0.139 0.0359 0.129,0 0 0.0232,0 0 0
UCACCGUUUG,0.222,0.209 0.144 0.0922,0 0 0,0 0 0
UCACCUCGCG,0.0131,0 0 0,0 0 0,0 0 0
UCACCUGCAG,0.0131,0 0 0,0 0 0,0 0 0
UCACCUGUCC,0.0131,0 0 0,0.0276 0 0,0 0.0202 0
UCAGCACAGG,0.0131,0 0 0,0 0 0,0 0 0
UCAGCGAAAG,0.248,0.122 0.0539 0.0922,0 0 0,0 0 0
UCAGCGAACG,0.405,0.156 0.0719 0.111,0 0 0.0232,0 0 0.0205
UCAGCGAAGG,0.0392,0.139 0.0359 0.0738,0 0 0,0 0 0
UCAGCGAAUG,0.340,0.0869 0.126 0.111,0 0 0.0232,0 0 0
UCAGCGACAG,0.301,0.156 0.126 0.111,0 0 0,0 0 0
UCAGCGACCG,0.222,0.0521 0.0719 0.0922,0 0 0.0232,0 0 0
UCAGCGACGG,0.327,0.0869 0.126 0.111,0 0 0,0 0 0
UCAGCGACUG,0.235,0.139 0.0359 0.0369,0.0276 0 0,0 0 0
UCAGCGAGAG,0.157,0.139 0.0898 0.0738,0 0 0,0 0 0
UCAGCGAGCG,0.170,0.0348 0.0719 0.0184,0 0 0,0 0 0
UCAGCGAGGG,0.222,0.0869 0.0898 0.0553,0.0276 0 0,0 0 0
UCAGCGAGUG,0.222,0.0869 0.0539 0.148,0 0 0,0.0180 0 0
UCAGCGAUAG,0.196,0.104 0.108 0.111,0.0276 0 0.139,0 0 0
UCAGCGAUCG,0.248,0.122 0.0719 0.0369,0 0 0,0 0 0
UCAGCGAUGG,0.196,0.0869 0.0359 0.0738,0 0 0,0 0 0
UCAGCGAUUG,0.340,0.0348 0.0539 0.111,0 0 0,0 0 0
UCAGCGCAAG,0.105,0.0695 0.0898 0.258,0 0 0,0 0 0
UCAGCGCACG,0.131,0.0869 0.0359 0.0922,0.0276 0 0,0 0 0
UCAGCGCAGG,0.183,0.104 0.0898 0.111,0 0 0,0 0 0
UCAGCGCAUG,0.0784,0.156 0.0359 0.148,0 0 0,0 0 0
UCAGCGCCAG,0.0915,0.156 0.0539 0.0553,0 0 0,0 0 0

For reference, wild type rose from 20.7 per thousand in the pool to 195, 198, 203 (inoculated region), 629, 591, 734 (leaf margin) and 942, 870, 868 (systemic leaves). Sequences that differ at fixed positions probably stem from PCR or sequencing errors, and defective variants can be carried along by functional ones.

Source: Wu et al. 2024 (doi:10.1371/journal.ppat.1012142), supplementary data.